The assay concerns the target T1, cell-to-cell fusion mediated by HIV-1 Env and CD4 (Human immunodeficiency virus type 1 group M subtype B, UniProt P04578).
T1 construct: expressed in transfected cells; host or cells: HeLa CD4 LTR beta-gal cells (CD4) co-cultured with HL2/3 cells (HIV-1 Env)
In kind it is cell-based. The note with it: HeLa CD4 LTR […]-gal + HL2/3 cells. The method, then:
The fusion assay assesses the ability of compounds to block cell-to-cell fusion mediated by HIV-1 Env and CD4 expressed on separate cells. This assay is sensitive to inhibitors of both the gp120/CD4 interaction and inhibitors of the X4 coreceptor. First, 5×10^3 HeLa CD4 LTR […]-gal cells are placed in microtiter wells and incubated overnight. The following day the media is removed and the HeLa CD4 LTR […]-gal cells are incubated for 1 h at 37° C. in fresh media with test compound. Following the incubation 5×10^3 HL2/3 cells are added and the incubation continued for 40 to 48 h. At 40 to 48 h […]-galactosidase enzyme expression is detected by chemiluminescence (Tropix Gal-screen™, Tropix, Bedford, Mass.). Compound toxicity is monitored on a sister plate using XTT dye reduction.

For “BHAlyslys2lys4lys8lys16[NH—CO—CH2)O-3,6-Naphthyl-(SO3Na)2]32 [SPL-7013]”, the “Fusion Assay IC50” value stood at 0.71 µg/mL.

(Values after patent US8158575B2, “Agent for the prevention and treatment of sexually transmitted diseases-I” (priority 2001, dated 2012).)
